The amount applied is not stated for every result.
System: HepG2 cells
Experiment: TaqMan low density array (TLDA) gene expression, HepG2 cells, dengue virus over heat-inactivated virus
Assay type: cell-based, human
Settings: dengue virus infection over heat-inactivated virus

RANTES
Fold increase in gene expression as determined by TLDA, HepG2 48 hrs (48 hrs): 296.5 fold
Fold increase in gene expression as determined by TLDA, HepG2 72 hrs (72 hrs): 1079.5 fold

From patent publication US20100068147A1, “DENGUE DIAGNOSIS AND TREATMENT” (Agency for Science , Technology and Research, priority 2006, published 2010)
